Experimental data from US12540165B2, “HSP fusion protein with anti-chemorepellant agent for treatment of cancer” (The General Hospital Corporation, priority 2016, dated 2026).

Assays:
[1] = tested on: Luc-ID8 ovarian cancer cells; assay: Syngeneic Luc-ID8 ovarian cancer model: intraperitoneal tumor growth by bioluminescence, and survival; format: in vivo, C57BL/6 mice; settings: for median survival: Luc-ID8 tumor-bearing mice, saline 55 days; for median survival / tumor growth as recorded by bioluminescence signals: 4 μg per mouse i.p.
[2] = tested on: 40L mouse mesothelioma cell line; assay: Immune profiling by flow cytometry of spleens and tumors of 40L tumor-bearing mice; format: in vivo, C57BL/6 mice; settings: for proportion of CD8+ T cells in total live cells / proportion of PD-1-expressing CD8+ T cells: 40L, compared to saline
[3] = tested on: AE17 mouse mesothelioma cell line; assay: Immune profiling by flow cytometry of spleens, lymph nodes and tumors of AE17 tumor-bearing mice; format: in vivo, C57BL/6 mice; settings: for proportion of CD8+ T cells in total live cells / proportion of PD-1-expressing CD8+ T cells: AE17, compared to saline
[4] = tested on: 40L mouse mesothelioma cell line; assay: Ex vivo restimulation with recombinant mesothelin, intracellular IFN-γ in CD8+ T cells, 40L mice; design: species or system C57BL/6 mice; settings: splenic CD8+ T cells, compared to saline
[5] = tested on: Luc-40L mesothelioma cancer cells; assay: Luc-40L mesothelioma model, survival (Example 4); format: in vivo, C57BL/6 mice; settings: compared to saline, VIC-008 20 μg, AMD3100 1 μg/g body weight, once a week for four weeks
[6] = tested on: AE17 mouse mesothelioma cell line; assay: AE17 intraperitoneal malignant mesothelioma model: tumor weight and survival (Example 5); format: in vivo, C57BL/6 mice; settings: compared to saline
[7] = tested on: 40L mouse mesothelioma cell line; assay: 40L intraperitoneal malignant mesothelioma model: tumor weight and survival (Example 5); format: in vivo, C57BL/6 mice; settings: compared to saline
[8] = tested on: AE17 mouse mesothelioma cell line; assay: Ex vivo restimulation with recombinant mesothelin, intracellular IFN-γ in CD8+ T cells, AE17 mice; design: species or system C57BL/6 mice; settings: compared to saline
[9] = tested on: ovarian cancer and mesothelioma; settings: previous study (Yuan J, et al. 2014); cited from earlier work
[10] = compared to saline, Log-rank test
[11] = compared to saline, 4 treatments at 7-day intervals

B1: VIC-008: scFv-MtbHsp70 fusion protein (anti-MSLN scFv fused to MtbHsp70), modified from VIC-007, phenylalanine in place of valine at position 381 of MtbHsp70 (protein)
chain: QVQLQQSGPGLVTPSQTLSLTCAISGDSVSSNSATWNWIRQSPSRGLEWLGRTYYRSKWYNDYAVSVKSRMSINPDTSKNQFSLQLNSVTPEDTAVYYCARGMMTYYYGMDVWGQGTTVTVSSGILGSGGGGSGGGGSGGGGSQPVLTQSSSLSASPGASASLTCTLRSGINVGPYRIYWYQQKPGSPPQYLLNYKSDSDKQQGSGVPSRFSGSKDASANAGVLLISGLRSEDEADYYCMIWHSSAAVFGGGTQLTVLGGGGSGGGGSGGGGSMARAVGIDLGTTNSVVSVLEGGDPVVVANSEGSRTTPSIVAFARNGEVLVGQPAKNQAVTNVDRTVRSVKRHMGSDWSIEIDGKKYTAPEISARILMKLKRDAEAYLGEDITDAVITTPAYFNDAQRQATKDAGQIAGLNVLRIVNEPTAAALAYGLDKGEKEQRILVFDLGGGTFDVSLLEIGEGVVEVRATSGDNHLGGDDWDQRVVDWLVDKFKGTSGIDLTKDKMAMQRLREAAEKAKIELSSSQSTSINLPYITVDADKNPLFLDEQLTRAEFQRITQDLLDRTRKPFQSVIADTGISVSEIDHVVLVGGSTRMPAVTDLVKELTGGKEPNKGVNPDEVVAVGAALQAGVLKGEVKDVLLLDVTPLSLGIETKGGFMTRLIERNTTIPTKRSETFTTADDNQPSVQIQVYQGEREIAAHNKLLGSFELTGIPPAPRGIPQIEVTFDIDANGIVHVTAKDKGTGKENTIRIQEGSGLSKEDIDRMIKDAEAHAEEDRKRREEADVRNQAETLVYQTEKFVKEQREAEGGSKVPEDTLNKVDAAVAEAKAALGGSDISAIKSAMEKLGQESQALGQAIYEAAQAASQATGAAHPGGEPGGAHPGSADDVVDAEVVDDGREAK
modifications: fusion protein
notes: scFv-MtbHsp70 fusion protein (anti-MSLN scFv fused to MtbHsp70), modified from VIC-007, phenylalanine in place of valine at position 381 of MtbHsp70
- median survival [1]: 65 days
- survival of tumor-bearing mice ([1]; compared to VIC-007, Log-rank test): further significantly prolonged the survival
- tumor growth as recorded by bioluminescence signals ([1]; compared to VIC-007): further significantly delayed tumor growth
- survival of tumor-bearing mice [1, 10]: significantly enhanced the survival
- tumor growth as recorded by bioluminescence signals [1, 11]: significantly slowed tumor growth
- percentage of PD-1 expressing CD8+ T cells ([2]; 40L tumors): 43-76%
- proportion of CD8+ T cells in total live cells ([2]; spleens): significantly increased
- proportion of PD-1-expressing CD8+ T cells ([2]; spleens): no significant difference
- proportion of CD8+ T cells in total live cells ([2]; tumors): significantly increased
- proportion of PD-1-expressing CD8+ T cells ([2]; tumors): significantly more
- percentage of PD-1 expressing CD8+ T cells ([3]; AE17 tumors): 28-47%
- proportion of CD8+ T cells in total live cells ([3]; lymph nodes): significantly increased
- proportion of PD-1-expressing CD8+ T cells ([3]; lymph nodes): no significant difference
- percentage of PD-1 expressing CD8+ T cells ([3]; spleen and lymph nodes): 5-10%
- proportion of CD8+ T cells in total live cells ([3]; spleens): significantly increased
- proportion of PD-1-expressing CD8+ T cells ([3]; spleens): no significant difference
- proportion of CD8+ T cells in total live cells ([3]; tumors): significantly increased
- proportion of PD-1-expressing CD8+ T cells ([3]; tumors): significantly more
- mesothelin-specific IFN-γ expression in CD8+ T cells [4]: significantly greater
- survival of tumor-bearing mice [5]: significantly enhanced the survival
- animal survival [6]: significantly prolonged
- total weight of intraperitoneal tumors / tumor control ([6]; one week after the last treatment): generally reduced
- total weight of intraperitoneal tumors / tumor control ([7]; 40L, one week after the last treatment): generally reduced
- animal survival ([7]; […]): significantly prolonged
- mesothelin-specific IFN-γ expression in CD8+ T cells ([8]; lymph node CD8+ T cells): significantly greater
- mesothelin-specific IFN-γ expression in CD8+ T cells ([8]; splenic CD8+ T cells): significantly greater

B2: VIC-007: original scFv-MtbHsp70 fusion protein: VH and VL from anti-MSLN p4 scFv fused to full length MtbHsp70 with a (G4S)3 linker (protein)
chain: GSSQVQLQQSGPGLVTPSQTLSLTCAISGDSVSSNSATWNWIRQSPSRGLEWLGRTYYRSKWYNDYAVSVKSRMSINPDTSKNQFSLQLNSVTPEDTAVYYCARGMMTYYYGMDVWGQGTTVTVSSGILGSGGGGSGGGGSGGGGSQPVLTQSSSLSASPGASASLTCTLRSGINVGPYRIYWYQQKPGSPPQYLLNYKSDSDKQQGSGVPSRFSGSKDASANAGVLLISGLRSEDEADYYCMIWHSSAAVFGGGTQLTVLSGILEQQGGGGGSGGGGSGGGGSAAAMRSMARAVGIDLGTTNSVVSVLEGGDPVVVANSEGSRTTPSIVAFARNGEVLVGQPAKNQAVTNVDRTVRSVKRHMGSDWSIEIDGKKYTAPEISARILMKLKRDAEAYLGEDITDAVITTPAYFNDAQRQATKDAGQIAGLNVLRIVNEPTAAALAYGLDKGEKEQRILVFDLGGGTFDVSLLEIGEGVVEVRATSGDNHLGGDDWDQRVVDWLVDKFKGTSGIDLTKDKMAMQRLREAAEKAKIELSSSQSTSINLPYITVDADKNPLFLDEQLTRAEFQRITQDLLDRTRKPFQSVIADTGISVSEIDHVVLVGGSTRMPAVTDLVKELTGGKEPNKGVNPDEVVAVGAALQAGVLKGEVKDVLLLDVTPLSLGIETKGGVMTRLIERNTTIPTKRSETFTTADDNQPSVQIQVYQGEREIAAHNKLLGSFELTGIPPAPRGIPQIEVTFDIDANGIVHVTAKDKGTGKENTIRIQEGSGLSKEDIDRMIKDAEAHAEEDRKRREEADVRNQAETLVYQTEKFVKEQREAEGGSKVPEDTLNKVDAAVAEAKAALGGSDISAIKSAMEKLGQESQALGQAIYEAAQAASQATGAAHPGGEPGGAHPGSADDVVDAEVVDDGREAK
modifications: fusion protein
notes: original scFv-MtbHsp70 fusion protein: VH and VL from anti-MSLN p4 scFv fused to full length MtbHsp70 with a (G4S)3 linker
- median survival [1]: 60 days
- survival of tumor-bearing mice [1, 10]: significantly enhanced the survival
- tumor growth as recorded by bioluminescence signals [1, 11]: significantly slowed tumor growth
- control of tumor growth and survival of tumor-bearing mice [9]: achieved significant control of tumor growth and prolongation of the survival of tumor-bearing mice
